Anti-infective test results gathered from many reports (values: NIAID ChemDB through PubChem).

Shared fields: growth or infection tests; species: HIV-1; read by: syncytia; read-out: EC50

Lines come from different laboratories, so protocols vary.

smiles,mutations,strain,cells,value
CCOCn1c(Cc2cc(C)cc(C)c2)c(CC)c(=O)[nH]c1=O,RT-Y181C,IIIB,CEM,1.2 µM
Nc1nc2c(ncn2[C@H]2CC[C@@H](CO)O2)c(=O)[nH]1,RT-L100I Y188H,IIIB TIBO R82913 STR-B22 (RT L100I Y188H),CEM,2 µM
CC(=O)[C@]12CCC(C)(C)CC1C1=CCC3[C@@]4(C)CCC(=O)C(C)(C)C4[C@H](O)C[C@@]3(C)[C@]1(C)CC2,-,IIIB,C8166,3.4 µM
C=CCn1c(=O)c(C)cn([C@@H]2O[C@H](CO[Si](C)(C)C(C)(C)C)C3(OS(=O)(=O)C=C3N)[C@H]2O[Si](C)(C)C(C)(C)C)c1=O,-,IIIB,CEM,0.111 µM
CC(C)=CCC/C(C)=C/CC/C(C)=C/CC/C(C)=C/Cc1cc(O)cc2c1OC(=O)C2,-,IIIB,C8166,1.56 µM
CCn1c(=O)c(C)cn([C@@H]2O[C@H](CO[Si](C)(C)C(C)(C)C)C3(OS(=O)(=O)C=C3N)[C@H]2O[Si](C)(C)C(C)(C)C)c1=O,RT-L100I E138K,IIIB TIBO R82913 STR-B02 (RT L100I E138K),CEM,>50 µM
CCN1C(=O)N(Cc2cccc(Cl)c2)S(=O)(=O)c2cscc21,RT-V106A,-,CEM,33.6 µM
C[C@H](Cn1cnc2c(N)ncnc21)OCP(=O)(O)O,RT-Y181C,IIIB,CEM,1.1 µg/mL
C=C(C)[C@@H]1CC[C@]2(CC(=O)O)CC[C@]3(C)C(CCC4[C@@]5(C)CCC(=O)C(C)(C)C5CC[C@]43C)C12,-,IIIB,C8166,0.17 µM
Cc1cn([C@H]2C[C@H](N=[N+]=[N-])[C@@H](CO)O2)c(=O)[nH]c1=O,RT-Y188H,IIIB,CEM,0.001 µg/mL
Cc1cn([C@@H]2O[C@H](CO)C3(OS(=O)(=O)C=C3N)[C@H]2O)c(=O)[nH]c1=O,-,IIIB,CEM,>300 µM
CC(C)Nc1cccnc1N1CCN(C(=O)c2cc3ccccc3[nH]2)CC1,RT-E138K,IIIB,CEM,0.18 µM
O=C1N(Cc2ccccc2)c2cscc2S(=O)(=O)N1Cc1ccccc1,RT-K103N,IIIB,CEM,>10 µM
CN[C@@H]1[C@H](O[C@@H]2OC[C@@H](O)[C@H](O)[C@H]2O)[C@@H](O)[C@H](O[C@H]2c3cc(C)c(C(=O)N[C@H](C)C(=O)O)c(O)c3-c3c(cc4c(c3O)C(=O)c3cc(OC)cc(O)c3C4=O)[C@@H]2O)O[C@@H]1C,-,IIIB,CEM,2.8 µg/mL
CCc1cc(NCc2nc3c(Cl)ccc(Cl)c3o2)c(=O)[nH]c1C,RT-V106A,IIIB NEV(RT-V106A),CEM,0.08 µg/mL
C[C@H](Cn1cnc2c(N)ncnc21)OCP(=O)(O)O,RT-M41L D67N V118I M184V L210W T215Y,Clinical isolate C20,CEM,23.5 µg/mL
CCN1C(=O)N(Cc2ccccc2)S(=O)(=O)c2cscc21,RT-E138K,IIIB,CEM,>310 µM
COc1cc([C@@H]2c3c(cc(OC)c(O)c3OC)C[C@H](CO)[C@H]2CO)cc(OC)c1O,-,IIIB,C8166,87.89 µM
N#CCN1C(=O)N(Cc2ccccc2)S(=O)(=O)c2cscc21,RT-Y181C,IIIB,CEM,>300 µM
CCOCn1c(Sc2ccccc2)c(CC)c(=O)[nH]c1=S,RT-Y181C,IIIB PYR(RT-Y181C),CEM,0.53 µg/mL
Cc1c(N)nc(N)nc1OCCOCP(=O)(O)O,-,IIIB,CEM,0.062 µg/mL
O=C1Nc2cscc2S(=O)(=O)N1Cc1ccccc1,-,IIIB,CEM,>67.9 µM
CC(C)=CCN1Cc2cccc3[nH]c(=S)n(c23)C[C@@H]1C,RT-L100I Y188H,IIIB TIBO R82913 STR-B22 (RT L100I Y188H),CEM,≥5 µM
Cc1ccnc2c1NC(=O)c1cccnc1N2C1CC1,RT-Y181C,IIIB,CEM,2.2 µg/mL
C[C@H](COc1cc(N)nc(N)n1)OCP(=O)(O)O,RT-M41L D67N V118I M184V L210W T215Y,Clinical isolate C20,CEM,7 µg/mL
Cc1ccnc2c1NC(=O)c1cccnc1N2C1CC1,RT-Y181C,IIIB,CEM,8.6 µM
Nc1ncnc2c1ncn2CCOCP(=O)(O)O,RT-K65R S68G T69I V75T Q151M,Clinical isolate DE434.4,CEM,70 µg/mL
CC(C)=CCN1Cc2cc(Cl)cc3[nH]c(=S)n(c23)C[C@@H]1C,RT-Y181C,IIIB,CEM,4.7 µM
Nc1ncnc2c1ncn2CCOCP(=O)(O)O,RT-L100I E138K,IIIB TIBO R82913 STR-B02 (RT L100I E138K),CEM,17 µM
Cc1cn([C@@H]2O[C@H](CO)C3(OS(=O)(=O)C=C3N)[C@H]2O[Si](C)(C)C(C)(C)C)c(=O)[nH]c1=O,-,IIIB,MOLT-4,>80 µM
CC(C)=CCC/C(C)=C/CC/C(C)=C/CC/C(C)=C/Cc1cc(O)cc2c1OC(=O)C2=C(C)C,-,IIIB,C8166,0.75 µM
Cc1ccnc2c1NC(=O)c1cccnc1N2C1CC1,-,HE,MT-4,0.02 µM
Cc1cn([C@H]2C[C@H](N=[N+]=[N-])[C@@H](CO)O2)c(=O)[nH]c1=O,RT-L100I Y188H,IIIB TIBO R82913 STR-B22 (RT L100I Y188H),CEM,0.045 µM
CCOCn1c(Sc2ccccc2)c(CC)c(=O)[nH]c1=O,RT-Y188H,IIIB HEPT-resistant (RT Y188H),CEM,≥20 µg/mL
CN1C(=O)N(Cc2ccccc2)S(=O)(=O)c2cscc21,RT-E138K,IIIB,CEM,>324 µM
CCN1C(=O)N(Cc2ccccc2Cl)S(=O)(=O)c2cscc21,-,HE,MT-4,11.5 µM
CCNc1cccnc1N1CCN(C(=O)c2cc3cc(OC)ccc3[nH]2)CC1,RT-L100I,IIIB BHAP(RT-L100I),CEM,2.5 µg/mL
O=C1Nc2cscc2S(=O)(=O)N1c1ccc(F)cc1,-,IIIB,CEM,>67 µM
Cc1cn([C@@H]2O[C@H](CO[Si](C)(C)C(C)(C)C)C3(OS(=O)(=O)C=C3N)[C@H]2O[Si](C)(C)C(C)(C)C)c(=O)n(C)c1=O,RT-Y181C,IIIB E-EBU(RT-Y181C),CEM,>50 µg/mL
CN1C(=O)N(Cc2ccccc2)S(=O)(=O)c2cscc21,RT-D67N K70R T215F K219Q,ADP/141,MT-4,4.9 µM
Cc1ccnc2c1NC(=O)c1cccnc1N2C1CC1,RT-L100I,IIIB,CEM,0.07 µM

The first 5 rows once more:

smiles | mutations | strain | cells | value
CCOCn1c(Cc2cc(C)cc(C)c2)c(CC)c(=O)[nH]c1=O | RT-Y181C | IIIB | CEM | 1.2 µM
Nc1nc2c(ncn2[C@H]2CC[C@@H](CO)O2)c(=O)[nH]1 | RT-L100I Y188H | IIIB TIBO R82913 STR-B22 (RT L100I Y188H) | CEM | 2 µM
CC(=O)[C@]12CCC(C)(C)CC1C1=CCC3[C@@]4(C)CCC(=O)C(C)(C)C4[C@H](O)C[C@@]3(C)[C@]1(C)CC2 | - | IIIB | C8166 | 3.4 µM
C=CCn1c(=O)c(C)cn([C@@H]2O[C@H](CO[Si](C)(C)C(C)(C)C)C3(OS(=O)(=O)C=C3N)[C@H]2O[Si](C)(C)C(C)(C)C)c1=O | - | IIIB | CEM | 0.111 µM
CC(C)=CCC/C(C)=C/CC/C(C)=C/CC/C(C)=C/Cc1cc(O)cc2c1OC(=O)C2 | - | IIIB | C8166 | 1.56 µM

ECn: concentration that inhibits the pathogen or its effect by n%. Blank or dashed fields: not listed here.